Measured values from several laboratories, pooled; numbers as filed in NIAID ChemDB.

Shared fields: tests in culture; species: Influenza A virus; read by: plaque count; endpoint: EC50

Two numbers with a dash give a range or band.

SMILES | cells | strain or isolate | value
Cc1ccc(O)c(C(=O)NCCN2[C@H](C)CC[C@@H]3CCCC[C@@H]32)c1 | MDCK | H1N1 A/WSN/33 (H1N1) | 0.19 µg/mL
C[C@H]1CC2CCCC1C2N | MDCK |  | 4 µM
Cc1ccc(O)c(C(=O)NCCN2[C@@H](C)CC[C@@H]3CCCC[C@@H]32)c1 | MDCK | H1N1 A/WSN/33 (H1N1) | 6 µg/mL
CCC(CC)O[C@@H]1C=C(C(=O)O)C[C@H](N)[C@H]1NC(C)=O | MDCK | H1N1 A/WSN/33 | 0.022 µM
CC(C)N1C2CCC23CC[C@H](NC(=O)c2cc(Cl)ccc2O)CC13 | MDCK | H1N1 A/WSN/33 (H1N1) | >50 µg/mL
Nc1nc2c(=O)[nH]cnc2n1[C@@H]1O[C@H](CO)[C@@H](O)[C@H]1F | MDCK | A/Sweden | >100 µM
Nc1ncc(/C=N/O)c(NCC2(CO)CCC2)n1 | MDCK | H1N1 A/PR/8/34 | 22–56 µM
CCC(CC)O[C@@H]1C=C(C(=O)O)C[C@H](N)[C@H]1NC(C)=O | MDCK | Influenza A H3N2 isolate C34C | ≤0.01 µg/mL
O=c1[nH]cnc2c1ncn2[C@@H]1O[C@H](CO)[C@@H](O)[C@H]1F | MDCK | A/Sweden | >100 µM
N#CNc1nncs1 | MDCK | A/Port Chalmers/1/73 | 0.8 µg/mL
CN1C2CCC23CC[C@@H](NC(=O)c2cc(Cl)ccc2O)CC13 | MDCK | H1N1 A/WSN/33 (H1N1) | >50 µg/mL
Nc1nc2c(ncn2[C@@H]2O[C@H](CO)[C@@H](O)[C@H]2F)c(=O)[nH]1 | CEF | H1N1 A/Sweden/3/50 | 0.5 µM
Nc1nc(Cl)cc(NCC2(CO)CCCCC2)n1 | MDCK | H1N1 A/PR/8/34 | 110 µM
Cc1ccc(O)c(C(=O)N[C@@H]2CCC34CCC3N(C)C4C2)c1 | MDCK | H1N1 A/WSN/33 (H1N1) | >50 µg/mL
Nc1nccc(NCC2(CO)CC(Cc3ccccc3)C2)n1 | MDCK | H1N1 A/PR/8/34 | 4–13 µM
CCC(C)N1C2CCC23CC[C@H](NC(=O)c2cc(C)ccc2O)CC13 | MDCK | H1N1 A/WSN/33 (H1N1) | >50 µg/mL
Nc1ncc(N)c(NCC2(CO)CC(CCc3ccccc3)C2)n1 | MDCK | H1N1 A/PR/8/34 | 11–20 µM
Cc1cn([C@@H]2O[C@H](CO)[C@@H](O)[C@H]2F)c(=O)[nH]c1=O | MDCK | A/Sweden | >100 µM

The last 2 rows once more:

SMILES | cells | strain or isolate | value
Nc1ncc(N)c(NCC2(CO)CC(CCc3ccccc3)C2)n1 | MDCK | H1N1 A/PR/8/34 | 11–20 µM
Cc1cn([C@@H]2O[C@H](CO)[C@@H](O)[C@H]2F)c(=O)[nH]c1=O | MDCK | A/Sweden | >100 µM

Conditions beyond the fields shown may differ between rows. An empty or dashed field is not shown. ECn: concentration that inhibits the pathogen or its effect by n%.